Laboratory results: PubChem BioAssay AID624099 (ICCB-Longwood, 2012)
Aim: 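Human genes that papillomavirus E2 requires to repress the HPV18 LCR promoter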 (primary screen). System: human C33A cervical carcinoma cells (HPV-negative) stably expressing BPV1 E2 and an HPV18 LCR luciferase reporter. Reagents: siRNA pool against human genes, 40 nM. Timing: 72 h. Detection: 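HPV18 LCR reporter light per well, converted to plate-wise z-scores that exclude control wells, and averaged over triplicate plates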. Direction: mean z-score and z-score: higher = stronger reporter signal, weaker E2 silencing. Rule for the call: 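Mean z ≥ 2 together with z ≥ 2 in two or more of the three replicates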.
In all, the deposit lists about 21,000 reagents; below is a part drawn at random. In the full data, 497 (2.4%) are marked active. 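Higher z means weaker E2 silencing; only reporter increases were scored, and knock-downs that hurt cell survival may mask genuine repressor factors.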 Entries without a mark were called inactive. Reagent sequences are not shown.

SLC25A46 — mean z-score: 2.05 (active); z-score, replicate A: 1.73; z-score, replicate B: 2.09; z-score, replicate C: 2.35
NOM1 — mean z-score: 0.4; z-score, replicate A: 0.11; z-score, replicate B: 0.42; z-score, replicate C: 0.66
CYP2C8 — mean z-score: 0.43; z-score, replicate A: 0.23; z-score, replicate B: 0.38; z-score, replicate C: 0.68
CPPED1 — mean z-score: 0.58; z-score, replicate A: 0.18; z-score, replicate B: 0.9; z-score, replicate C: 0.64
TARP — mean z-score: -0.17; z-score, replicate A: 0.14; z-score, replicate B: -0.2; z-score, replicate C: -0.44
SPDYE1 — mean z-score: -1.01; z-score, replicate A: -1.57; z-score, replicate B: -1; z-score, replicate C: -0.46
TRIM25 — mean z-score: 0.81; z-score, replicate A: 0.66; z-score, replicate B: 0.81; z-score, replicate C: 0.97
SLC25A21 — mean z-score: -0.27; z-score, replicate A: -0.14; z-score, replicate B: -0.5; z-score, replicate C: -0.17
B4GALNT4 — mean z-score: 0.77; z-score, replicate A: 0.66; z-score, replicate B: 0.75; z-score, replicate C: 0.9
CELA2B — mean z-score: 0.67; z-score, replicate A: 0.3; z-score, replicate B: 0.9; z-score, replicate C: 0.79
DNASE1L1 — mean z-score: 0.23; z-score, replicate A: -0.17; z-score, replicate B: 0.29; z-score, replicate C: 0.57
PROM2 — mean z-score: -0.37; z-score, replicate A: -0.23; z-score, replicate B: -0.6; z-score, replicate C: -0.29
CNTN3 — mean z-score: 1.64; z-score, replicate A: 1.45; z-score, replicate B: 1.59; z-score, replicate C: 1.86
LENG1 — mean z-score: 1.86; z-score, replicate A: 1.81; z-score, replicate B: 1.97; z-score, replicate C: 1.8

Just “mean z-score” (2 entries from above):
CYP2C8 = 0.43
CPPED1 = 0.58
